Results of unrelated studies side by side (data: NIAID ChemDB).

Shared fields: tests in culture; agent: HIV-1

ECn is the concentration giving n% inhibition of infection, replication or growth.

structure	measure	mutations	strain	cells	read by	conditions	value
C(CCC1CNCCNCCCNCCNC1)CCC1CNCCNCCCNCCNC1	EC50		RF	MT-4	cytopathic effect / MTT	4 d	0.3 µM
CCN1C(=O)N(Cc2cccc(Cl)c2)S(=O)(=O)c2cscc21	EC50		RF	MT-4	syncytia		3.6 µM
Cc1c(Sc2ccccc2)n(COCCO)c(=O)[nH]c1=O	EC50	RT-Y188H	IIIB HEPT-resistant (RT Y188H)	CEM	syncytia		≥250 µg/mL
CC(C)(C)NC(=O)[C@@H]1C[C@@H]2CCCC[C@@H]2N1C(=O)[C@@H](O)[C@H](Cc1ccccc1)NC(=O)[C@H](CC(N)=O)NC(=O)COc1cccc2ccccc12	EC50		RF	MT-2	p24		0.005–0.038 µM
Cn1c(C2COCCN2)nc(C(=O)NCc2ccc(F)cc2)c(O)c1=O	EC95		IIIB	MT-4	p24 / ELISA	50% human serum	>1 µM
Cc1cn([C@H]2C[C@H](N=[N+]=[N-])[C@@H](CO)O2)c(=O)[nH]c1=O	EC50		NL4-3	MT-2	cytopathic effect / neutral red		0.0183 µM
Nc1ccn([C@@H]2CS[C@H](CO)O2)c(=O)n1	EC90		LAI	Primary T lymphocytes	p24 / ELISA		3.1 µM
CC1=C(C)[C@](CO)(c2ccccc2)C[C@H]1n1ccc(N)nc1=O	EC50			MT-4	cytopathic effect		>100 µg/mL
CC(C)=CCC[C@]1(C)C=Cc2c(ccc3c2C(=O)C(O)=C(C2=C(C4=C(O)C(=O)c5c(ccc6c5C=C[C@@](C)(CCC=C(C)C)O6)C4=O)C(=O)c4c(ccc5c4C=C[C@@](C)(CCC=C(C)C)O5)C2=O)C3=O)O1	EC50		NL4-3	CEM + CEM-SS	cytopathic effect		<20 µM
CC(C)(C)NC(=O)[C@@H]1[C@@H]2CCCC[C@@H]2CN1C(=O)[C@@H](O)[C@H](Cc1ccccc1)NC(=O)[C@H](CC(N)=O)NC(=O)c1ccc2ccccc2c1	EC50		RF	MT-2	p24		0.047 µM
C=C1CN(S(=O)(=O)c2ccc(C)cc2)CCCN(Cc2ccccc2)CCCN(S(=O)(=O)c2ccc(C)cc2)C1	EC50		NL4-3	MT-4	cytopathic effect / MTT		0.88–1.32 µM
CCc1cc(NCc2nc3c(C)ccc(C)c3o2)c(=O)[nH]c1C	EC50		IIIB	PBL	p24		<0.1 µM
CC(C)=CCN1Cc2cccc3[nH]c(=S)n(c23)C[C@@H]1C	EC50		D34	PBL	syncytia		0.06 µM
O=C(NCc1ccc(F)cc1F)[C@H](OCc1ccccc1)[C@H](O)[C@@H](O)[C@@H](OCc1ccccc1)C(=O)N[C@H]1c2ccccc2C[C@H]1O	EC50			MT-4	cytopathic effect / XTT		>100 µM
Cc1cn([C@H]2C[C@H](N=[N+]=[N-])[C@@H](COP(=O)(O)OP(=O)(O)OP(=O)(O)O)O2)c(=O)[nH]c1=O	EC50		WEJO Clinical isolates	PBMC	p24		0.0073 µM
C#C[C@@]1(CO)C=C[C@H](n2cc(C)c(=O)[nH]c2=O)O1	EC50		IIIB WT	MT-4	cytopathic effect / MTT		0.1 µM
CC1=C(C)[C@](CO)(c2ccccc2)C[C@H]1n1cnc2c(N)ncnc21	EC50			MT-4	cytopathic effect		61 µg/mL
CCn1c(=O)c(C)cn([C@@H]2O[C@H](CO[Si](C)(C)C(C)(C)C)C3(OS(=O)(=O)C=C3N)[C@H]2O[Si](C)(C)C(C)(C)C)c1=O	EC50	RT-V106A	IIIB NEV(RT-V106A)	CEM	syncytia		27 µg/mL
O=C(CSc1nnnn1-c1cc(Cl)ccc1Cl)Nc1ccccc1[N+](=O)[O-]	EC50			MT-4	p24	10% FBS	<0.078 µM
CCc1nc2ccccn2c1C(=O)c1ccco1	EC50		BaL	MM + M/M	RT activity		1 µM
N#Cc1ccc(Nc2nc(Oc3c(Br)cc(Br)cc3Br)ncc2NC(=O)C(F)(F)F)cc1	EC50		RES056	MT-4	MTT		2.95 µM
[N-]=[N+]=NC1=C[C@H](n2ccc(N)nc2=O)O[C@@H]1CO	EC90			PBMC			>100 µM
c1ccc(C2OCc3nc4ccccc4n32)cc1	EC50	RT-V106A	Nevirapine-resistant (RT V106A)	CEM	cytopathic effect / MTT		>16.9 µM
Nc1ccn([C@H]2CC[C@@H](CO)O2)c(=O)n1	EC50		ROD	C8166	syncytia		0.05 µM
CCc1nc2sccn2c1C(=O)c1ccc(O)cc1	EC50		LAI	CEM + CEM-SS	RT activity		>64 µM
CC(C)(C)NC(=O)[C@@H]1C[C@@H]2CCCC[C@@H]2N1C(=O)[C@@H](O)[C@H](Cc1ccccc1)NC(=O)[C@H](CC(N)=O)NC(=O)c1ccc2ccccc2n1	EC90		RF	MT-2	p24		0.023–0.11 µM
N#CCN1C(=O)N(Cc2ccccc2)S(=O)(=O)c2cscc21	EC50	RT-E138K		CEM	syncytia		7.2 µM
C[C@H]1OCC[C@H]1OC(=O)N[C@@H](Cc1ccccc1)[C@H](O)CN1C[C@H]2CCCC[C@H]2C[C@H]1C(=O)NC(C)(C)C	EC50		IIIB	MT-4	p24		<1.6 µM
O=CO[C@H]1C[C@H](n2ccc(=O)[nH]c2=O)O[C@@H]1CO	EC50			CEM	cytopathic effect		>100 µM
[B-][P@](=O)(OC[C@H]1O[C@@H](n2cc(C)c(=O)[nH]c2=O)C[C@@H]1N=[N+]=[N-])OP(=O)(O)C(F)(F)P(=O)(O)O	EC50			CEM			1.2 µM
C#CCN1C(=O)N(Cc2ccccc2)S(=O)(=O)c2cscc21	EC50		RF	MT-4	syncytia		0.6 µM
NCCCCN(Cc1nc2ccccc2[nH]1)C1CCCc2cccnc21	EC50		NL4-3	PBMC			0.01 µM
CCc1nc2ccccn2c1C(=O)c1cccs1	EC50		IIIB	MT-4	RT activity		13 µM
Nc1nc(=O)n([C@@H]2CS[C@H](CO)O2)cc1F	EC90		LAI	Primary T lymphocytes	p24 / ELISA		0.8 µM
CCN1C(=O)N(Cc2ccccc2)S(=O)(=O)c2cscc21	EC50	RT-L100I		CEM	syncytia		10.2 µM
Fc1cccc(F)c1C1OCc2nc3ccccc3n21	EC50	RT-V106A	Nevirapine-resistant (RT V106A)	CEM	cytopathic effect / MTT		>13.85 µM
CC(C)c1nc(CN(C)C(=O)N[C@H](C(=O)N[C@@H](Cc2ccccc2)C[C@H](O)[C@H](Cc2ccccc2)NC(=O)OCc2cncs2)C(C)C)cs1	EC50		NL4-3	MT-4	cytopathic effect / MTT		0.064 µM
Cc1cc(C)c(-n2nnnc2SCC(=O)Nc2ccc(OCCCN(C)C)cc2Cl)c(C)c1	EC50			MT-4	p24	10% FBS	<0.031 µM
C1CNCCNCC(CCOCCOCCC2CNCCNCCCNCCNC2)CNCCNC1	EC50		IIIB	MT-4	cytopathic effect / MTT	5 d	7.5 µM
CC(C)(C)NC(=O)[C@@H]1CN(Cc2cccnc2)CCN1C[C@@H](O)C[C@@H](Cc1ccccc1)C(=O)N[C@H]1c2ccccc2C[C@H]1O	EC50	Indinavir-resistant (PR-M46I L63P V82T I84V)	NL4-3	MT-2	cytopathic effect / neutral red		0.0177 µM
CNC(=O)[C@H](OCc1ccccc1)[C@H](O)[C@@H](O)[C@@H](OCc1ccccc1)C(=O)N[C@H]1c2ccccc2C[C@H]1O	EC50			MT-4	cytopathic effect / XTT		2 µM
CCc1cc(NCc2nc3c(Cl)ccc(Cl)c3o2)c(=O)[nH]c1C	EC50		IIIB	H9	p24		<0.1 µM
Cc1cc(C)c(-n2nnnc2SCC(=O)Nc2ccc(C(N)=O)cc2Cl)c(C)c1	EC50			MT-4	p24	10% FBS	<0.008 µM
Cc1cn([C@@H]2O[C@H](CO[Si](C)(C)C(C)(C)C)C3(OS(=O)(=O)C=C3N)[C@H]2O[Si](C)(C)C(C)(C)C)c(=O)n(C)c1=O	EC50	RT-Y188H	IIIB HEPT-resistant (RT Y188H)	CEM	syncytia		≥50 µg/mL
CCC[C@H]1[C@@H](OC(=O)N[C@@H](Cc2ccccc2)[C@H](O)CN2C[C@H]3CCCC[C@H]3C[C@H]2C(=O)NC(C)(C)C)CCS1(=O)=O	EC50		IIIB	MT-4	p24		<0.4 µM
Nc1cc(OCCOCP(=O)(O)O)nc(N)n1	EC50	RT-S68G K70T V75I F77L K103N F116Y Q151M K219R	Clinical isolate L6.5	CEM	syncytia		1.85 µg/mL
CCOCn1c(Cc2ccccc2)c(CC)c(=O)[nH]c1=O	EC50	RT-Y188H	IIIB HEPT-resistant (RT Y188H)	CEM	syncytia		7.3 µg/mL
CC(C)=CCN1Cc2cc(Cl)cc3[nH]c(=S)n(c23)C[C@@H]1C	EC50		IIIB	MT-4	RT activity		0.33 µM
Cc1ccnc2c1NC(=O)c1cccnc1N2C1CC1	EC50		Nevirapine-resistant (RT Y181C)	MT-2	cytopathic effect / neutral red		>1.25 µM
Cc1c(O)cccc1C(=O)N[C@@H](CSc1ccccc1)[C@H](O)CN1C[C@H]2CCCC[C@H]2C[C@H]1C(=O)NC(C)(C)C	EC50		NL4-3	MT-4	cytopathic effect / MTT		0.01835 µM
Cc1cc(C)c(-n2nnnc2SCC(=O)Nc2ccc([N+](=O)[O-])cc2Cl)c(C)c1	EC50			MT-4	p24	10% FBS	<0.078 µM
COCc1c(CNCC(C)C)cc2cc(OC)c(OC)cc2c1-c1ccc(OC)c(OC)c1	EC50		CONB/pNL43E-Luc+	U87 (CD4+ CCR5+) + U87	luciferase		0.32 µg/mL
c1cc(CN2CCCNCCNCCCNCC2)ccc1CN1CCCNCCNCCCNCC1	EC50		NL4-3	MT-4	cytopathic effect / MTT		0.02097 µM
CC(=O)Nc1cnc(Oc2c(C)cc(C)cc2C)nc1Nc1ccc(C#N)cc1	EC50		RES056	MT-4	MTT		>323 µM
Nc1nc(NC2CC2)c2ncn([C@H]3C=C[C@@H](CO)C3)c2n1	EC50		WEJO Clinical isolates	PBMC	p24		0.06 µM
CC(C)(C)NC(=O)[C@@H]1C[C@@H]2CCC[C@@H]2CN1C[C@@H](O)[C@H](Cc1ccccc1)NC(=O)O[C@H]1CCS(=O)(=O)C1	EC95		IIIB	MT-4	p24		>0.2 µM
CN1CCOCC1c1nc(C(=O)NCc2ccc(F)c(Cl)c2)c(O)c(=O)n1C	EC95		IIIB	MT-4	p24 / ELISA	10% FBS	<0.008 µM
Cc1cn([C@@H]2O[C@H](CO)[C@@H](N=[N+]=[N-])[C@H]2O)c(=O)[nH]c1=O	EC50			PBMC			>100 µM
CN1CCC[C@H]1c1nc(C(=O)NCc2ccc(F)cc2)c(O)c(=O)n1C	EC95		IIIB	MT-4	p24 / ELISA	50% human serum	>1 µM
O=c1[nH]cnc2c1ncn2[C@H]1CC[C@@H](CO)O1	EC50		NL4-3	MT-4	cytopathic effect / MTT		5.2 µM
Nc1ncnc2c1ncn2CCOCP(=O)(O)O	EC50	RT-S68G K70T V75I F77L K103N F116Y Q151M K219R	Clinical isolate L6.5	CEM	syncytia		30 µg/mL
CC(C)(C)NC(=O)[C@@H]1C[C@@H]2CCCC[C@@H]2N1C(=O)[C@@H](O)[C@H](Cc1ccccc1)NC(=O)[C@H](CC(N)=O)NC(=O)COc1ccc2cc(Br)ccc2c1	EC50		RF	MT-2	p24		0.065 µM
O=C1OCc2c1cc1cc(O)c(O)cc1c2-c1ccc(O)c(O)c1	EC50		CONB/pNL43E-Luc+	U87 (CD4+ CCR5+) + U87	luciferase		0.25 µg/mL
Cc1cc(C#N)cc(C)c1Oc1ncc(N)c(Nc2ccc(C#N)cc2)n1	EC50		RES056	MT-4	MTT		0.33 µM
Cc1cc(Cl)nc(C)c1C(=O)NCC[C@@H](C)N1CCC(N(Cc2ccsc2)C(=O)NCCCC(=O)O)CC1	EC50			PBMC	p24 / ELISA		0.69 µM
Cc1c(N)nc(N)nc1OCCOCP(=O)(O)O	EC50	RT-A62V V75I F77L Q151M M184V	Clinical isolate HA20.17	CEM	syncytia		0.18 µg/mL
C1CNCCNCC(CCCC2CNCCNCCCNCCNC2)CNCCNC1	EC50		IIIB	MT-4	cytopathic effect / MTT	5 d	0.12 µM
CC(C)CNC(=O)[C@H](OCc1ccccc1)[C@H](O)[C@@H](O)[C@@H](OCc1ccccc1)C(=O)N[C@H]1c2ccccc2C[C@H]1O	EC50			MT-4	cytopathic effect / XTT		>100 µM
Cc1cn([C@H]2C[C@H](N=[N+]=[N-])[C@@H](CO)O2)c(=O)[nH]c1=O	EC50		REJO4541.67	TZM-bl	p24 / ELISA		0.01841 µM
C1CNCCNCC(CCC2CNCCNCCCNCCNC2)CNCCNC1	EC50		RF	MT-4	cytopathic effect / MTT	5 d	0.36 µM
N#Cc1ccc(Nc2nc(Oc3c(Cl)cccc3Cl)ncc2NC(=O)C(F)(F)F)cc1	EC50		RES056	MT-4	MTT		>190 µM
C1CCNCCNCCCNCCNC1	EC50		IIIB	MT-4	cytopathic effect / MTT		100 µM
Cc1cn([C@H]2C[C@H](N=[N+]=[N-])[C@@H](CO)O2)c(=O)[nH]c1=O	EC90			PBMC			0.014 µM
C[C@@H]1C[C@@H](c2nc(C(=O)NCc3ccc(F)cc3)c(O)c(=O)n2C)N(C)C1	EC95		IIIB	MT-4	p24 / ELISA	50% human serum	>1 µM
CC(=O)N1CCC(C(=O)N(CCCN2CCC(Cc3ccc(C(N)=O)cc3)CC2)c2ccc(C)c(Cl)c2)CC1	EC50		X4 subtype B_3 recombinant	U87 (CD4+ CXCR4+) + U87	luciferase		>19 µM
CC(C)(C)NC(=O)[C@@H]1C[C@@H]2CCCC[C@@H]2CN1C[C@@H](O)[C@H](Cc1ccccc1)NC(=O)O[C@H]1CCS(=O)(=O)[C@H]1C1CCCC1	EC50		IIIB	MT-4	p24		<0.4 µM
Cc1ccc(Cl)cc1-n1nnnc1SCC(=O)Nc1ccccc1[N+](=O)[O-]	EC50			MT-4	p24	10% FBS	<0.063 µM
CCc1nc2sccn2c1C(=O)c1ccco1	EC50		IIIB	PBMC	RT activity		1.5 µM
C[C@H](Cn1cnc2c(N)ncnc21)OCP(=O)(O)O	EC50	RT-M41L V118I L210W T215Y	Clinical isolate C19	CEM	syncytia		20 µg/mL
Cc1cn([C@H]2C=C[C@@H](CO)O2)c(=O)[nH]c1=O	EC50	RT-K103N M184V	NL4-3	MAGI (CCR5) + MAGI	β-galactosidase		0.2 µM
O=C(CSc1nnnn1-c1cccc(Cl)c1Cl)Nc1ccccc1[N+](=O)[O-]	EC50			MT-4	p24	50% human serum	<0.125 µM
CCNc1cccnc1N1CCN(C(=O)c2cc3cc(OC)ccc3[nH]2)CC1	EC50		MN	H9	syncytia		0.25 µM

Two numbers with a dash give a range or band. An empty or dashed field is not shown. Conditions beyond the fields shown may differ between rows.